Anti-infective test results gathered from many reports (values: NIAID ChemDB through PubChem).

Shared fields: host cell toxicity; cell line: C8166; read-out: CC50

Rows are shuffled and stem from different studies. Blank or dashed fields: not listed here. CCn: concentration that lowers growth or viability of the cells by n%.

compound	read by	result
Cc1cn([C@H]2C[C@H](N=[N+]=[N-])[C@@H](CO)O2)c(=O)[nH]c1=O	MTT	>400 µM
CN(Cc1ccc2ccccc2n1)Cc1ncccc1CCC#N	MTT	>10 µM
C=C1C(=O)O[C@H]2[C@@H]1[C@H](OC(=O)C(C)C)[C@@H]1[C@@](C)([C@@H](OC(C)=O)CC[C@]1(C)O)[C@H]2OC(C)=O	absorbance	50.67 µM
CN(Cc1nc2ccccc2o1)Cc1ncccc1CCC#N	MTT	>10 µM
Cc1cn([C@H]2C[C@H](N=[N+]=[N-])[C@@H](CO)O2)c(=O)[nH]c1=O	absorbance	1100 µM
CC[C@H](C)[C@H](NC(=O)[C@@H]1CCCN1P(=O)(OC)C(CC1CCCCC1)NC(=O)OCc1ccccc1)C(=O)NCC(C)C		16 µM
Cc1cc(S(N)(=O)=O)ccc1NC(=O)COc1ccc(F)cc1Oc1ccc2ccccc2c1Cl	MTT / absorbance	47.05 µM
C=C(C)[C@@]12OC3(C)O[C@@H]1[C@@H]1[C@H](O)[C@@](C)(O)[C@@H](O)[C@@]4(O)[C@@H](C[C@H](C)[C@@H]4O)[C@@]1(O3)[C@H](C)[C@@H]2OCc1ccccc1	MTT	0.0371 µM
CCCCCCCCCCCCCC(=O)O[C@@H]1[C@@H](C)[C@@]2(O)[C@@H](C=C(CO)C[C@]3(O)C(=O)C(C)=C[C@@H]23)[C@@H]2C(C)(C)[C@]12O	MTT	23.9 µM
NC(=O)[C@H](CCCCNC(=O)CCC(=O)O)NC(=O)[C@H](CCCCNC(=O)CCC(=O)O)NC(=O)[C@H](CCCCNC(=O)CCC(=O)O)NC(=O)c1ccccc1	XTT	200 µM
CC[C@H](C)[C@H](NC(=O)[C@@H](Cc1ccccc1)NP(=O)(OC)C(CC1CCCCC1)NC(=O)OCc1ccccc1)C(=O)NCC(C)C		2 µM
CN(Cc1ccccn1)Cc1nc2ccccc2n1C(=O)OC(C)(C)C	MTT	>10 µM
Cc1cc(S(N)(=O)=O)ccc1NC(=O)COc1ccc(F)cc1Oc1ccc2ccccc2c1	MTT / absorbance	68.55 µM
CN1CCN(c2ccnc3nc(CN(CCCCN)Cc4ncc(F)cc4F)[nH]c23)CC1	MTT	>10 µM
O=C(c1cc2c([nH]c3ccccc32)c(-c2cccs2)n1)N1CCC(c2ccccc2F)CC1	MTT	>400 µM
C=C(C)[C@@]1(OCc2ccccc2)[C@H](OC(C)=O)[C@@H]2[C@H](OC(C)=O)[C@@]3(C)O[C@@]4(C(C[C@H](C)[C@@H]4O)[C@@]2(O)[C@H](C)[C@@H]1OC(C)=O)[C@@H]3OC(C)=O	MTT	>0.2976 µM
COC(=O)C[C@](O)(Cc1ccc(O)c(OC)c1)C(=O)OC	MTT	>200 µg/mL
CCN1c2ncc(CCc3ccncc3)cc2C(=O)N(C)c2ccc(Cl)nc21		>60 µM
O=C(C[C@@H](O)CCc1ccccc1)c1ccc(O)cc1	MTT	93.02 µg/mL
COc1cc([C@H]2c3cc(O)c(OC)cc3C[C@H]3COC[C@@H]32)ccc1O	MTT	>200 µg/mL
C=C(C)[C@@]1(OCc2ccccc2)[C@H](OC(C)=O)[C@@H]2[C@H](OC(C)=O)[C@@]3(C)O[C@@]4(C(C[C@H](C)[C@@H]4OC(C)=O)[C@@]2(O)[C@H](C)[C@@H]1OC(C)=O)[C@@H]3OC(C)=O	MTT	>0.2801 µM
Cc1ccc(N2CCN(C(=O)c3cc4c([nH]c5ccccc54)c(-c4cccs4)n3)CC2)cc1	MTT	>400 µM
O=C(O)/C=C(/CC(=O)O)C(=O)NCCCC[C@H](NC(=O)OCc1ccccc1)C(=O)OCc1ccccc1	XTT	100 µM
COc1cc([C@H]2c3cc(O)c(OC)cc3C[C@@H](COC(C)=O)[C@@H]2COC(C)=O)ccc1O	MTT	>200 µg/mL
CC[C@H](C)[C@H](NC(=O)[C@@H](Cc1ccccc1)NP(=O)(OC)C(Cc1ccccc1)NC(=O)C(CC(N)=O)NC(=O)OC(C)(C)C)C(=O)NCC(C)C		100 µM
Cc1cc(S(N)(=O)=O)ccc1NC(=O)COc1ccc(F)cc1Oc1ccc2ccccc2c1C	MTT / absorbance	56.05 µM
CC/C=C\C/C=C\C/C=C\C/C=C\C/C=C\CCCC(=O)O[C@@H]1[C@@H](C)[C@@]2(O)[C@@H](C=C(CO)C[C@]3(O)C(=O)C(C)=C[C@@H]23)[C@@H]2C(C)(C)[C@]12O	MTT	44.8 µM
CN(Cc1nc2ccccc2[nH]1)Cc1ncccc1CCC(=O)O	MTT	>10 µM
COc1cc([C@H]2OC[C@H]3[C@@H]2CO[C@H]3c2ccc(O)c(OC)c2)ccc1O	MTT	>200 µg/mL
O=C(O)CCC(=O)NCCCC[C@H](NC(=O)OCc1ccccc1)C(=O)N[C@@H](CCCCNC(=O)CCC(=O)O)C(=O)OCc1ccccc1	XTT	250 µM
COc1cc2c(c(OC)c1OC)-c1c(cc3c(c1OC)OCO3)[C@H](OC(=O)c1ccccc1)[C@@](C)(O)[C@@H](C)C2	MTT	72.44 µg/mL
CCN1c2ncc(CCc3ccncc3)cc2C(=O)N(C)c2cccnc21		>60 µM
Cc1cc(S(N)(=O)=O)ccc1NC(=O)COc1ccc(F)cc1Oc1ccc2ccccc2c1Br	MTT / absorbance	39.52 µM
COc1cc([C@H]2O[C@@H](c3ccc(O)cc3)[C@H](C)[C@@H]2C)ccc1O	MTT	26.98 µg/mL
CC[C@H](C)[C@H](NC(=O)CNP(=O)(OC)C(Cc1ccccc1)NC(=O)OCc1ccccc1)C(=O)NCC(C)C		>30 µM
CCc1c(CC2CCCCC2)nc(SCC(=O)c2ccc(OC(=O)c3ccccc3)cc2)[nH]c1=O	MTT	36.85 µM
C=Cc1cccnc1CN(CCCCN)Cc1nc2nccc(N3CCN(C)CC3)c2[nH]1	MTT	>10 µM
CC(=O)OCC1=C[C@H]2[C@@H]3C(C)(C)[C@]3(O)[C@H](OC(=O)CCc3ccccc3)[C@@H](C)[C@]2(O)[C@@H]2C=C(C)C(=O)[C@@]2(O)C1	MTT	118.8 µM
COc1cc(C[C@H]2CO[C@@H](O[C@@H](CCc3ccccc3)CC(=O)c3ccc(O)cc3)[C@@H]2Cc2ccc(O)c(OC)c2)ccc1O	MTT	9.21 µg/mL
CC(C)CC(=O)O[C@@H]1/C=C/C=C/C(=O)O[C@H]2[C@@H](C)C[C@@H]3[C@]2(O)[C@H](O)[C@@]2(CO)O[C@H]2[C@H]2[C@@H](O)[C@@](O)([C@H]4OC(C)(c5ccccc5)O[C@]23[C@@H]4C)[C@](C)(O)C[C@H]2CC[C@H]1[C@H]2C	MTT	0.0222 µM
C/C=C/C(=O)O[C@@H]1[C@@H](C)[C@@]2(O)[C@@H](C=C(CO)C[C@]3(O)C(=O)C(C)=C[C@@H]23)[C@@H]2C(C)(C)[C@]12OC(=O)/C=C/C	MTT	77.6 µM
O=C(c1cc2c([nH]c3ccccc32)c(-c2cccs2)n1)N1CCN(c2ccccc2)CC1	MTT	>400 µM